These results are taken from PubChem BioAssay AID602481 (Broad Institute, 2012).

The list shows a part of the results, in another mix than the full data. Active and inactive are the calls of the source. Rule as the data show it: active = inhibition above about 40%; inconclusive = no clear call, values can overlap the other calls; inactive = below that.

The test system of the assay is 7,8-diaminopelargonic acid synthase BioA (Mycobacterium tuberculosis). Kind of assay: M. tuberculosis BioA enzyme inhibitors, primary screen, biochemical, plate reader, single point, HTS (AID 602481). As to conditions: purified M. tuberculosis BioA enzyme, at 9.99 µM, stronger effect = higher value.
For `ClCCSc1nnc(-c2cccnc2)o1`, the inhibition was inactive: 2.73%.

Turning to `CC(C)c1ccc(OP(=O)(Nc2ccccn2)Oc2ccccc2F)cc1` (stereo not drawn), the inhibition is inactive: -0.226%.

With `CCN(CC)C(=S)SC(NC=O)C(Cl)(Cl)Cl` (stereo not drawn), the inhibition was inactive: -0.542%.

With `O=C(OC1CN2CCC1CC2)c1cccc2[nH]cnc12` (stereo not drawn), the inhibition was inactive: -0.731%.

As for `O=[N+]([O-])c1ccc(-c2cc([N+](=O)[O-])c(O)c([N+](=O)[O-])c2)cc1`, the inhibition is inactive: 1.13%.

Turning to `C[As](=O)(O)c1cccc(C(=O)O)c1`, the inhibition was inactive: -0.671%.

With `O=[As](O)(c1ccc(O)cc1)c1ccccc1O`, the inhibition was inactive: 0.504%.

For the molecule `Cc1ccc(OP(=O)(Nc2ccc([N+](=O)[O-])cn2)Oc2ccc(C)cc2)cc1`, the inhibition was inactive: -2.7%.

Turning to `COc1ccc(N/C(=N/P(=O)(N2CCOCC2)N2CCOCC2)N2CCOCC2)cc1`, the inhibition is inactive: -0.477%.

For the molecule `Cc1cc(=O)[nH]c(N[N+](=O)[O-])n1`, the inhibition was inactive: -0.935%.

Consider `O=C(OC1CN2CCC1CC2)C12CC3CC(CC(C3)C1)C2` (stereo not drawn), for which the inhibition is inactive: -0.705%.

Turning to `O=P1(N(CCCl)CCCl)Nc2ccccc2N1`, the inhibition was inactive: -2.94%.

For `COc1ccc(CN2/C(=N\P(=O)(Oc3ccccc3)Oc3ccccc3)Cc3ccccc3C2C2CC2)cc1` (stereo not drawn), the inhibition is inactive: -1.32%.

As to `COc1cc(I)ccc1[As](=O)(O)O`, the inhibition is inactive: 1.99%.

For the molecule `CSc1ccc(Nc2c([N+](=O)[O-])cc([N+](=O)[O-])cc2[N+](=O)[O-])cc1`, the inhibition was inactive: -4.2%.

For the molecule `O=C(OC1CN2CCC1CC2)c1cccc([N+](=O)[O-])c1` (stereo not drawn), the inhibition was inactive: 0.111%.

In the case of `CCOC(=O)c1ccc(NC(=O)C(C)(CCl)SC)cc1` (stereo not drawn), the inhibition is inactive: -0.989%.

For `CCC(C)N(CC(C)C)C(=S)SC(NC(C)=O)C(Cl)(Cl)Cl` (stereo not drawn), the inhibition is inactive: 0.166%.

`COP1(=S)c2c(C)nn(CCC#N)c2N=C(c2ccc(F)cc2)N1C` (stereo not drawn): the inhibition is inactive: 2.23%.

On to `O=C(O)C(=O)c1ccc(N(CCCl)CCCl)cc1`, for which the inhibition is inactive: -0.771%.

Consider `O=C(Nc1ccncc1[N+](=O)[O-])c1ccc([N+](=O)[O-])cc1[N+](=O)[O-]`, for which the inhibition was inactive: -1.9%.

In the case of `O=C(COc1ccccc1)OC1CN2CCC1CC2` (stereo not drawn), the inhibition was inactive: -1.82%.

`CCOC(=O)Nc1cccc([As](=O)(O)O)c1`: the inhibition is inactive: -0.368%.

On to `O=[N+]([O-])c1ccc(Nc2ccc(Oc3ccc([N+](=O)[O-])cc3[N+](=O)[O-])cc2)c([N+](=O)[O-])c1`, for which the inhibition is inactive: -0.594%.

Regarding `O=C(O)C(O)c1ccc(N(CCCl)CCCl)cc1` (stereo not drawn), the inhibition was inactive: -3.04%.

Turning to `CCOC(=O)Nc1ccc([As](=O)(O)O)c(O)c1`, the inhibition was inactive: -0.26%.

`CC1CCNP(=O)(N(CCCl)CCCl)O1` (stereo not drawn): the inhibition is inactive: -1.13%.

As to `COP(=O)(OC)N1CC1c1ccccc1` (stereo not drawn), the inhibition is inactive: 0.135%.

In the case of `CCCCOc1ccc(C(=O)NCC2(N3CCCCC3)CCCCC2)cc1OC`, the inhibition was inactive: -3.98%.

Regarding `Cc1ccc(S(=O)(=O)N(CCCN)CCCc2c(C)nc(N)[nH]c2=O)cc1`, the inhibition was inactive: 1.68%.

Turning to `O=P1(Nc2ncccn2)COc2ccccc2OC1`, the inhibition was inactive: -0.31%.

`Nc1cccc([As](=O)(O)c2ccccc2)c1`: the inhibition is inactive: -0.994%.

Consider `NS(=O)(=O)c1cccc(NC(=O)COC(=O)C(O)(c2ccccc2)c2ccccc2)c1`, for which the inhibition is inactive: 8.36%.

As for `O=P1(Nc2ccc(Br)cn2)COc2ccccc2OC1`, the inhibition was inactive: 6.52%.

Consider `Cc1ccc(OCC(=O)OC2CN3CCC2CC3)cc1` (stereo not drawn), for which the inhibition was inactive: -0.275%.

As to `O=[As](O)(c1cccs1)c1cccs1`, the inhibition was inactive: 0.538%.

As to `Cc1ccc(C(=O)OC2CN3CCC2CC3)cc1` (stereo not drawn), the inhibition is inactive: -0.542%.

Regarding `CC1CCC(C(C)C)C(OP(=O)(Nc2ccccn2)c2ccccc2)C1` (stereo not drawn), the inhibition is inactive: 1.24%.

For `Cc1nn(-c2ccccc2)c2c1P(=O)(N1CCOCC1)N(C)C(c1ccccc1)=N2` (stereo not drawn), the inhibition is inactive: 1.47%.

For the molecule `CN(C(=O)Cc1ccc(Cl)c(Cl)c1)[C@@H]1CCCC[C@H]1N1CCCC1`, the inhibition is inactive: -1.98%.

Consider `CC(C)/C=N\N=C(\N)N[N+](=O)[O-]`, for which the inhibition was inactive: -2.52%.

As for `CCOP(=O)(NC(=NC(C)c1ccccc1)NC(C)c1ccccc1)OCC` (stereo not drawn), the inhibition was inactive: 0.578%.

With `CCC1=CC2Cc3nc4ccc(Cl)cc4c(N)c3C(C1)C2` (stereo not drawn), the inhibition is inactive: 0.054%.

For `O=P1(Nc2ccccn2)COc2ccccc2OC1`, the inhibition is inactive: -0.311%.

On to `CN(CCCl)Cc1cc(Cl)c(NC2=NCCN2)c(Cl)c1`, for which the inhibition was inactive: 0.453%.

Regarding `CC(C)(C)C(=O)NC(Sc1ncccn1)C(Cl)(Cl)Cl` (stereo not drawn), the inhibition is inactive: 0.801%.

Turning to `Clc1n[nH]nc1-c1nn[nH][15n]1`, the inhibition was inactive: -2.07%.

As to `O=P1(N(CCCl)CCCl)NCCC(C(F)(F)F)O1` (stereo not drawn), the inhibition was inactive: 0.895%.

Consider `Cc1ccc(NCCc2c([N+](=O)[O-])cc([N+](=O)[O-])cc2[N+](=O)[O-])cc1`, for which the inhibition was inactive: -0.958%.

For the molecule `Nc1cccc2c([As](=O)(O)O)cccc12`, the inhibition was inactive: -7.78%.

Consider `CCCOP(=S)(Nc1nc(N)cc(=O)[nH]1)OCCC`, for which the inhibition is inactive: 0.396%.

For `O=C(OC1CN2CCC1CC2)c1ccc(Cl)cc1` (stereo not drawn), the inhibition was inactive: 0.58%.

As to `CS(=O)(=O)c1ccc(Cl)c(NC(=O)COC(=O)C(O)(c2ccccc2)c2ccccc2)c1`, the inhibition is inactive: 5%.

Take `O=[As](O)(O)c1cccnc1`: the inhibition was inactive: -0.254%.

For the molecule `O=[As](O)(c1cccc(O)c1)c1cccc(O)c1`, the inhibition is inactive: -2.39%.

On to `Cc1cccc(OCC(=O)OC2CN3CCC2CC3)c1` (stereo not drawn), for which the inhibition was inactive: 0.481%.

Regarding `NC(=O)Nc1ccc([As](=O)(O)O)cc1`, the inhibition was inactive: -1.26%.

With `CN(C(=O)Cc1ccccc1)[C@@H]1CC[C@]2(CCCO2)C[C@H]1N1CCCC1`, the inhibition is inactive: -1.13%.

On to `CCOP1(=S)c2c(C)nn(CCC#N)c2N=C(c2ccc(F)cc2)N1C` (stereo not drawn), for which the inhibition was inactive: 2.32%.

`N#CCCN(C(=O)COC(=O)C(O)(c1ccccc1)c1ccccc1)c1ccc(F)cc1`: the inhibition was inactive: 0.0095%.

`CN(C(=O)Cc1ccc(Cl)c(Cl)c1)[C@H]1CC[C@@]2(CCCO2)C[C@@H]1N1CCCC1`: the inhibition is inactive: -0.203%.

For `CN(C)C(=O)c1cc([N+](=O)[O-])cc2c1-c1c(cc([N+](=O)[O-])cc1[N+](=O)[O-])C2=O`, the inhibition is inactive: 1.4%.

Turning to `O=[N+]([O-])c1ccc2c(c1)nnn2O`, the inhibition is inactive: -1.11%.

Regarding `O=P(Nc1nccs1)(c1ccccc1)c1nc2ccccc2s1` (stereo not drawn), the inhibition was inactive: 0.591%.

In the case of `CCOP1(=S)c2c(C)nn(CCC#N)c2N=C(c2ccccc2F)N1C` (stereo not drawn), the inhibition is inactive: 1.27%.

Consider `O=C(O)COc1ccc([As](=O)(O)O)cc1[N+](=O)[O-]`, for which the inhibition was inactive: -0.213%.

For `Nc1ccccc1[As](=O)(O)c1ccccc1`, the inhibition was inactive: -1.31%.

For `CCC(=O)N1C2C3N(C(=O)CC)C1C1N(C(=O)CC)C(C(N1C(=O)CC)N3C(=O)CC)N2C(=O)CC`, the inhibition is inactive: -2.16%.

For `O=C(OC1CN2CCC1CC2)c1ccccc1` (stereo not drawn), the inhibition was inactive: 0.725%.

For `CC(=O)NC(SC(=S)N(CC(C)C)CC(C)C)C(Cl)(Cl)Cl` (stereo not drawn), the inhibition was inactive: -0.701%.

In the case of `COC(=O)c1cc2c(s1)N=C(c1ccccc1)N(C)P2(=O)N1CCOCC1` (stereo not drawn), the inhibition was inactive: -4.71%.

Consider `CN(C)C(=O)Oc1noc2ccccc12`, for which the inhibition was inactive: 0.084%.

With `CC(NC(=O)COC(=O)C(O)(c1ccccc1)c1ccccc1)c1ccccc1` (stereo not drawn), the inhibition is inactive: 0.15%.

Consider `Cc1ccc(NP(=O)(Oc2cccc(C)c2)Oc2cccc(C)c2)nc1`, for which the inhibition is inactive: -1.09%.

Take `CCNC(=S)/N=C(\N)N[N+](=O)[O-]`: the inhibition was inactive: 0.897%.

As for `O=P1(N(CCCl)CCCl)OCCC2CCCCN21` (stereo not drawn), the inhibition is inactive: -3.78%.

For `C[C@@H]1C=CCP(=O)(Oc2ccccc2)O1` (stereo partly drawn), the inhibition was inactive: -1.3%.

For the molecule `C[C@H]1OP(=O)(Oc2ccccc2)C[C@@H]2O[C@@H]21` (stereo partly drawn), the inhibition is inactive: -1.58%.

On to `Cc1ccccc1CN(C)C(=O)COC(=O)C(O)(c1ccccc1)c1ccccc1`, for which the inhibition is inactive: -0.335%.

As to `CC(=O)c1ccc(N2CC2c2ccncc2)cc1` (stereo not drawn), the inhibition was inactive: 0.949%.

Turning to `CC(=O)Nc1ccc(Oc2c([N+](=O)[O-])cc([N+](=O)[O-])cc2[N+](=O)[O-])cc1`, the inhibition was inactive: -1.79%.

As for `CC(=O)Nc1ccc([As](=O)(O)O)c(O)c1`, the inhibition was inactive: -0.589%.

As for `O=P1(Nc2nc3ccc(Cl)cc3s2)COc2ccccc2O1` (stereo not drawn), the inhibition was inactive: -1.88%.

Regarding `CCc1cc(O)c([N+](=O)[O-])c(C)c1[N+](=O)[O-]`, the inhibition is inactive: 0.262%.

With `O=P(Nc1nccs1)(c1ccccc1)c1ccccc1`, the inhibition was inactive: -0.58%.

Turning to `c1nnnn1CCn1cnnn1`, the inhibition was inactive: -1.47%.

Turning to `O=[As](O)(c1ccccc1)c1ccc(O)cc1`, the inhibition is inactive: -2.15%.

With `CC(=O)NC(SC(=S)N(C)C)C(Cl)(Cl)Cl` (stereo not drawn), the inhibition is inactive: -0.624%.

Consider `O=[N+]([O-])c1ccc(O)c(/C=N/Nc2ccc([N+](=O)[O-])cc2[N+](=O)[O-])c1`, for which the inhibition is inactive: -4.26%.

For the molecule `O=C(OC1CN2CCC1CC2)c1cccc(Cl)c1` (stereo not drawn), the inhibition is inactive: -0.599%.

`Nc1ccc([As](=O)(O)c2ccc([N+](=O)[O-])cc2)cc1`: the inhibition was inactive: 4.6%.

In the case of `CN(C)C1(CNC(=O)c2ccc(Cl)c(S(N)(=O)=O)c2)CCCCC1`, the inhibition was inactive: 0.342%.

`O=P(Nc1ccccn1)(c1ccc(Br)cc1)c1ccc(Br)cc1`: the inhibition was inactive: -2.41%.

As for `Nc1ccc(CCCCOc2ccccc2)cc1`, the inhibition was inactive: 2.8%.

Turning to `COc1ccc(N)c([N+](=O)[O-])c1[N+](=O)[O-]`, the inhibition is inactive: 2.24%.

In the case of `C[C@H]1OP(=O)(Oc2ccccc2)[C@H](O)[C@H](O)[C@H]1N=[N+]=[N-]` (stereo partly drawn), the inhibition is inactive: -41.8%.

With `O=P(Nc1nc2ccccc2s1)(c1ccccc1)c1ccccc1`, the inhibition is inactive: -2.41%.

Regarding `O=C(O)CNc1ccc([As](=O)(O)O)cc1`, the inhibition is inactive: -2.31%.
